# Source: PubChem BioAssay AID651724 (National Center for Advancing Translational Sciences (NCATS), 2012)
# This is a selection; strong and weak results do not stand in their true shares. Activity calls are given as the source filed them. No stated cut-off is given here; in the data, active means activity change below about -65%; inconclusive means mostly about -30% to -63%; inactive means weaker than that.
# Test system: CtBP / adenovirus E1A interaction (AlphaScreen)
# Test: qHTS Assay for Inhibitors of the CtBP/E1A Interaction
# Settings: AlphaScreen GST-E1A/His-CtBP binding, 1536-well; hits give low values
# Source text: Carboxyl-terminal binding protein (CtBP) is a co-repressor for many transcription factors. […] Our studies have shown that CtBP is overexpressed in multiple human cancers, including lung, breast, and head and neck cancers. In particular, it is over-expressed in 50% of primary lung cancer and 90% of metastatic lesions. CtBP suppresses epithelial-specific genes as well as genes critical for apoptosis, providing the underlying molecular mechanism for its role in tumorigenesis. […] Based on the above data, we hypothesize that 1) CtBP suppresses the pro-apoptotic and epithelial genes, therefore overexpressed CtBP in human cancer cells increases EMT and cancer survival; 2) decreasing CtBP's function represents a targeted therapy for lung cancer and potentially multiple cancer types. As a co-repressor, CtBP binds to E1A and other transcription factors through a conserved peptide motif to carry out its action. Inhibiting this interaction using small molecules can potentially serve as effective cancer therapeutics.
# To this end, we have developed a homogenous AlphaScreen assay targeting the CtBP/E1A interaction. We performed a large scale HTS of the Molecular Libraries Small Molecule Repository (MLSMR) to identify inhibitors of the CtBP/E1A interaction as potential anti-cancer therapeutics. Compounds identified can also be used as chemical probes to better understand the biological functions of CtBP.
# NIH Chemical Genomics Center [NCGC]
# NIH Molecular Libraries Probe Centers Network [MLPCN]
# Assay Submitter (PI): Rui Zhao, University of Colorado Denver
# The first step of the 5uL AlphaScreen assay is to dispense assay buffer (50 mM Tris, pH 8.0, 300 mM NaCl, 0.05% BSA, 0.02% Tween 20, 1 mM TCEP) into a Greiner 1536 white solid bottom microtiter plate (789175-F). Five microliters is added to Column 1, 4 uL is added to Column 2 and 3 uL is added to Columns 3 through 48. A 5X protein solution (125 nM GST-E1A protein + 125 nM His-tagged CtBP protein) is mixed and 1 uL is dispensed to Columns 3-48. Using a 1536 pintool, 23 nL of compound is transferred to the assay plate and the plate is incubated with a lid at 37 deg C in the dark for two hours. A solution of 5X AlphaScreen beads is mixed (50 ug/mL Glutathione linked donor beads + Nickel chelated acceptor beads) and 1 uL is dispensed to Columns 2-48. The assay plate is incubated for one hour, with a lid, at 37 deg C in the dark. The plate is read using a Perkin Elmer Envision using an AlphaScreen protocol.
# On the % scale 0 is the no-effect control and ±100 the full control effect.
row,Compound,activity change
1,CN1CCC(Nc2ccc(F)c(Cl)c2)CC1,inactive: 7.02%
2,CCOc1ncccc1C(=O)NCC1(N2CCOCC2)CCCCC1,inactive: -3.6%
3,NN(c1ccccc1)C1CCN(CCc2ccccc2)CC1,inactive: -10%
4,CC(C)(C)OC(=O)N1CCC(Nc2ccccc2)CC1,inactive: -10.9%
5,O=c1[nH]c2ccccc2n1C1CCN(C(c2cc3ccccc3o2)c2nnnn2C2CCCC2)CC1 (centres undefined),inactive: -9.09%
6,CCCOc1ccc(C(=O)NCC2(N(C)C)CCCCC2)cc1,inactive: 4.6%
7,COc1cccc(C(=O)N(c2cc(C)cc(C)c2)C2CCN(C(=O)OC(C)(C)C)CC2)c1,inactive: 5.09%
8,COc1cc(OC)cc(C(=O)NCC2(N3CCOCC3)CCCCC2)c1,inactive: 2.13%
9,COc1cccc(C(c2nnnn2C2CCCC2)N2CCC(n3c(=O)[nH]c4ccccc43)CC2)c1OC (centres undefined),inactive: -5.31%
10,CCC(CO)(C(=O)OC1CN2CCC1CC2)c1ccccc1 (centres undefined),inactive: -2.62%
11,CCC(c1nnnn1C1CCCCC1)N1CCC(n2c(=O)[nH]c3ccccc32)CC1 (centres undefined),inactive: -18.9%
12,COc1cccc(C(c2nnnn2C2CCCCC2)N2CCC(n3c(=O)[nH]c4ccccc43)CC2)c1OC (centres undefined),inactive: -15.7%
13,CC(=O)N(c1ccccc1)C1CCNCC1,inactive: -0.214%
14,COc1cc(OC)cc(C(=O)NCC2(N3CCCCC3)CCCCC2)c1,inactive: 0%
15,O=c1[nH]c2ccccc2n1C1CCN(C(c2ccnc3ccccc23)c2nnnn2C2CCCCC2)CC1 (centres undefined),inactive: -2.29%
16,Fc1ccccc1NC1CCN(Cc2ccccc2)CC1,inactive: 8.2%
17,Cc1ccc(Nc2c([N+](=O)[O-])cc([N+](=O)[O-])cc2[N+](=O)[O-])cc1,inactive: -4.85%
18,Cc1ccc(C(=O)NCC2(N3CCCCC3)CCCCC2)o1,inactive: 3.55%
19,Cc1ccc(NC2(C#N)CCN(Cc3ccccc3)CC2)cc1,inactive: 9.09%
20,COc1ccc(C(c2nnnn2C2CCCCC2)N2CCC(n3c(=O)[nH]c4ccccc43)CC2)cc1 (centres undefined),inactive: 1.84%
21,CCN1CCC(Nc2cccc(F)c2)CC1,inactive: -10.2%
22,CC(C)(C)n1nnnc1C(c1ccnc2ccccc12)N1CCC(n2c(=O)[nH]c3ccccc32)CC1 (centres undefined),inactive: -22.4%
23,Cc1ccccc1NC1(C#N)CCN(Cc2ccccc2)CC1,inactive: 7.65%
24,CN(C)c1ccc(C(=O)NCC2(N3CCCCC3)CCCCC2)cc1,inactive: 1.41%
25,Cn1c(=O)[nH]cc(N(CCCl)CCCl)c1=O,inactive: 14.3%
26,O=C(NCC1(N2CCCCC2)CCCCC1)c1ccco1,inactive: 1.14%
27,N#Cc1ccc(C(=O)NCC2(N3CCCCC3)CCCCC2)cc1,inactive: 0%

row,Compound,activity change
1,CC(C)(C)OC(=O)N1CCC(N(C(=O)c2ccccc2)c2ccc(Cl)cc2)CC1,inactive: -4.24%
2,CCOC(=O)C(CC)C1=NC(C)(C)Cc2ccccc21.O=[N+]([O-])c1cc([N+](=O)[O-])c(O)c([N+](=O)[O-])c1 (centres undefined),inactive: 2.93%
3,CN(C)C1(CNC(=O)c2cccc(C#N)c2)CCCCC1,inactive: 9.52%
4,O=c1[nH]c2ccccc2n1C1CCN(C(c2ccccc2)c2nnnn2C2CCCC2)CC1 (centres undefined),inactive: -11.7%
5,CCCN1CCC(Nc2cc(OC)cc(OC)c2)CC1,inactive: 3%
6,Cc1cc(N(CCCl)CCCl)ccc1C=O,inactive: 12.3%
7,c1ccc(CN2CCC(Nc3ccccc3)CC2)cc1,inactive: -0.296%
8,CC(C)(C)n1nnnc1C(c1cccc2ccccc12)N1CCC(n2c(=O)[nH]c3ccccc32)CC1 (centres undefined),inactive: -12.3%
9,CCCCn1nnnc1C(c1ccccc1)N1CCC(n2c(=O)[nH]c3ccccc32)CC1 (centres undefined),inactive: -3.55%
10,O=C(NCC1(N2CCOCC2)CCCCC1)c1cc(Br)ccc1Cl,inactive: 0%
11,O=c1[nH]c2ccccc2n1C1CCN(C(c2cccs2)c2nnnn2C2CCCCC2)CC1 (centres undefined),inactive: -3.9%
12,O=c1[nH]c2ccccc2n1C1CCN(C(c2ccnc3ccccc23)c2nnnn2C2CCCC2)CC1 (centres undefined),inactive: -3.71%
13,CCOC(=O)N1CCC(Nc2ccc(C)cc2)CC1,inactive: -7.15%
14,COc1cccc(C(c2nnnn2C(C)(C)C)N2CCC(n3c(=O)[nH]c4ccccc43)CC2)c1OC (centres undefined),inactive: -25.2%
15,N/C(=N\O)c1c(N)no[n+]1[O-],inactive: -0.681%
16,O=c1[nH]c2ccccc2n1C1CCN(C(c2cccs2)c2nnnn2C2CCCC2)CC1 (centres undefined),inactive: -11.3%
17,CCc1cc(C(=O)NCC2(N3CCCCC3)CCCCC2)sc1C,inactive: -1.75%
18,O=C(OC1CN2CCC1CC2)C1c2ccccc2C=Cc2ccccc21 (centres undefined),inactive: -15.4%
19,CCCCn1nnnc1C(c1cccc(OC)c1OC)N1CCC(n2c(=O)[nH]c3ccccc32)CC1 (centres undefined),inactive: -3.87%
20,CCCCn1nnnc1C(c1ccccc1OC(F)(F)F)N1CCC(n2c(=O)[nH]c3ccccc32)CC1 (centres undefined),inactive: -13.7%
21,CC(C)c1ccc(NC2CCN(C(=O)OC(C)(C)C)CC2)cc1,inactive: 2.86%
22,CN(C)c1cccc(C(=O)NCC2(N3CCCCC3)CCCCC2)c1,inactive: 1.85%
23,O=[N+]([O-])c1cc([N+](=O)[O-])c(OC2CCCCC2O)c([N+](=O)[O-])c1 (centres undefined),inactive: 0%
24,COc1ccc(CN(CCCl)CCCl)cc1Cl,inactive: 7.86%
25,CCC(c1nnnn1C(C)(C)C)N1CCC(n2c(=O)[nH]c3ccccc32)CC1 (centres undefined),inactive: -4.19%
26,COc1cc(OC)c(C(=O)NCC2(N(C)C)CCCCC2)cc1OC,inactive: -7.95%
27,CCCCn1nnnc1C(c1ccnc2ccccc12)N1CCC(n2c(=O)[nH]c3ccccc32)CC1 (centres undefined),inactive: -13.9%
